pEC50: −log10 of the molar value. Values joined by “and” are separate entries in the source; they are usually repeats but may differ in a detail not shown here. Equal entries are not always repeated.
Biological target: SARS-CoV-2 RdRp (nsp12/7/8 complex) in the presence of ExoN (nsp14/10 complex, wild type) (Severe acute respiratory syndrome coronavirus 2, UniProt P0DTD1, P4715L)
Assay: cell-based
Design: species or system SARS-CoV-2 Omicron variant B.1.1.529/BA.5 sublineage
Details: Inhibition of SARS-CoV-2 RdRp in vitro (EC50) Nsp12 + Nsp14

For `O=c1[nH]cnc2c([C@@H]3N[C@H](CO)[C@@H](O)[C@H]3O)c[nH]c12` [Forodesine], the pEC50 was ~6.50 and 6.50.

Source: paper PMC9450471 (Computational Biology and Chemistry, 2022)
